In patent publication US8574608B2, “Bactericidal silver surfactant delivery into coating and polymer compositions” (Eastern Michigan Universtity, priority 2007, dated 2013):
Where “and” joins values, the source holds several entries; their conditions need not be identical. Equal values may be shown once.

Tests used:
E. coli [1] = assay: PU composition containing AgAOT used to challenge E. coli; conditions: 24 h contact time; for surviving bacteria (growth), E. coli: PU slab
E. coli [2] = assay: E. coli challenged by silver surfactants in commercial acrylic paint; assay type: cell-based, Escherichia coli; conditions: 24 h contact time; for surviving bacteria (growth): commercial solvent borne acrylate paint coating; for surviving bacteria (growth): key: A minus sign (−) denotes no growth; a plus sign (+) denotes confluent growth; a capital P (P) denotes particle growth
E. coli [3] = assay: E. coli challenged by silver surfactants in commercial 2K epoxy paint; assay type: cell-based, Escherichia coli; conditions: 24 h contact time; for surviving bacteria (growth): commercial 2K epoxy paint coating; for surviving bacteria (growth): key: A minus sign (−) denotes no growth; a plus sign (+) denotes confluent growth; a capital P (P) denotes particle growth
S. aureus = S. aureus challenged by silver surfactants in laboratory acrylic clearcoat; assay type: cell-based, Staphylococcus aureus; conditions: 24 h contact time; for surviving bacteria (growth): laboratory solvent borne acrylate clearcoat; for surviving bacteria (growth): key: A minus sign (−) denotes no growth; a plus sign (+) denotes confluent growth; a capital P (P) denotes particle growth
[4] = system: Staphylococcus aureus ATCC 6538; assay: S. aureus challenge by fabrics sprayed with AgAOT; conditions: for effect on S. aureus: 0.24% silver solution sprayed
E. coli ATCC 11229 = assay: Challenge of E. coli by AgAOT doped polyurethane coatings on microscope slides
[5] = acetate, sprayed 0.06% w/w AgAOT/isopropanol, 0 h contact time
[6] = acetate, sprayed 0.06% w/w AgAOT/isopropanol, 24 h contact time
[7] = cotton, sprayed 0.06% w/w AgAOT/isopropanol, 0 h contact time
[8] = cotton, sprayed 0.06% w/w AgAOT/isopropanol, 24 h contact time
[9] = linen, sprayed 0.06% w/w AgAOT/isopropanol, 24 h contact time
[10] = polyester, sprayed 0.06% w/w AgAOT/isopropanol, 0 h contact time
[11] = polyester, sprayed 0.06% w/w AgAOT/isopropanol, 24 h contact time
[12] = rayon, sprayed 0.06% w/w AgAOT/isopropanol, 24 h contact time
[13] = silk, sprayed 0.06% w/w AgAOT/isopropanol, 0 h contact time
[14] = silk, sprayed 0.24% w/w AgAOT/isopropanol, S. aureus - 24 h

silver bis[2-ethylhexyl]sulfosuccinate
silver level giving complete inhibition (E. coli [1]; AgAOT incorporated into PU): 0.30 % w/w silver
surviving bacteria (growth), E. coli (E. coli [1]; 0.01 weight % Ag in PU composition): +
surviving bacteria (growth), E. coli (E. coli [1]; 0.03 weight % Ag in PU composition): +
surviving bacteria (growth), E. coli (E. coli [1]; 0.10 weight % Ag in PU composition): +
surviving bacteria (growth), E. coli (E. coli [1]; 0.30 weight % Ag in PU composition): −
surviving bacteria (growth), E. coli (E. coli [1]; 1.0 weight % Ag in PU composition): −
surviving bacteria (growth), E. coli (E. coli [1]; 3.0 weight % Ag in PU composition): −
silver level partially effective (E. coli [2]; commercial acrylic paint): 0.03 % Ag w/w
surviving bacteria (growth) (E. coli [2]; 0.0012 weight % Ag in coating): +
surviving bacteria (growth) (E. coli [2]; 0.003 weight % Ag in coating): +
surviving bacteria (growth) (E. coli [2]; 0.006 weight % Ag in coating): +
surviving bacteria (growth) (E. coli [2]; 0.012 weight % Ag in coating): +
surviving bacteria (growth) (E. coli [2]; 0.03 weight % Ag in coating): P
surviving bacteria (growth) (E. coli [2]; 0.06 weight % Ag in coating): −
surviving bacteria (growth) (E. coli [2]; 0.12 weight % Ag in coating): −
surviving bacteria (growth) (E. coli [3]; 0.0012 weight % Ag in coating): +
surviving bacteria (growth) (E. coli [3]; 0.003 weight % Ag in coating): +
surviving bacteria (growth) (E. coli [3]; 0.006 weight % Ag in coating): +
surviving bacteria (growth) (E. coli [3]; 0.012 weight % Ag in coating): +
surviving bacteria (growth) (E. coli [3]; 0.03 weight % Ag in coating): +
surviving bacteria (growth) (E. coli [3]; 0.06 weight % Ag in coating): −
surviving bacteria (growth) (E. coli [3]; 0.12 weight % Ag in coating): −
silver level giving complete inhibition of growth (E. coli [3]; commercial 2K epoxy paint): 0.06 % w/w
silver level at which partial growth is observed (S. aureus; laboratory acrylic clearcoat): 0.0012 % Ag w/w
surviving bacteria (growth) (S. aureus; 0.0012 weight % Ag in coating): P
surviving bacteria (growth) (S. aureus; 0.003 weight % Ag in coating): −
surviving bacteria (growth) (S. aureus; 0.006 weight % Ag in coating): −
surviving bacteria (growth) (S. aureus; 0.012 weight % Ag in coating): −
surviving bacteria (growth) (S. aureus; 0.03 weight % Ag in coating): −
surviving bacteria (growth) (S. aureus; 0.06 weight % Ag in coating): −
surviving bacteria (growth) (S. aureus; 0.12 weight % Ag in coating): −
CFU/mL, Average [4, 5]: 0.00E+00 CFU/mL
CFU/mL, Run #1-#4 [4, 5]: 0.00E+00 CFU/mL
CFU/mL, Average [4, 6]: 0.00E+00 CFU/mL
CFU/mL, Run #1-#4 [4, 6]: 0.00E+00 CFU/mL
S. aureus eradication ([4]; cotton, linen, polyester, acetate and rayon, 0.06% silver solution sprayed, 24 h contact time): complete eradication
S. aureus growth inhibition ([4]; cotton, polyester and acetate, 0.06% silver solution sprayed, 0 h contact time (about 3-10 minutes)): complete
CFU/mL, Average [4, 7]: 0.00E+00 CFU/mL
CFU/mL, Run #1-#4 [4, 7]: 0.00E+00 CFU/mL
CFU/mL, Average [4, 8]: 0.00E+00 CFU/mL
CFU/mL, Run #1-#4 [4, 8]: 0.00E+00 CFU/mL
CFU/mL, Average ([4]; linen, sprayed 0.06% w/w AgAOT/isopropanol, 0 h contact time): 1.24E+04 CFU/mL
CFU/mL, Average [4, 9]: 0.00E+00 CFU/mL
CFU/mL, Run #1-#4 [4, 9]: 0.00E+00 CFU/mL
CFU/mL, Average [4, 10]: 0.00E+00 CFU/mL
CFU/mL, Run #1-#4 [4, 10]: 0.00E+00 CFU/mL
CFU/mL, Average [4, 11]: 0.00E+00 CFU/mL
CFU/mL, Run #1-#4 [4, 11]: 0.00E+00 CFU/mL
S. aureus growth inhibition ([4]; rayon, 0.06% silver solution sprayed, 0 h contact time): 3 orders of magnitude
CFU/mL, Average ([4]; rayon, sprayed 0.06% w/w AgAOT/isopropanol, 0 h contact time): 1.88E+02 CFU/mL
CFU/mL, Average [4, 12]: 0.00E+00 CFU/mL
CFU/mL, Run #1-#4 [4, 12]: 0.00E+00 CFU/mL
S. aureus growth inhibition ([4]; silk, 0.06% silver solution sprayed, 0 h contact time): no effect
effect on S. aureus ([4]; silk, 0 h contact time (5-10 minutes)): neither organism was significantly affected
effect on S. aureus ([4]; silk, 24 h contact): eradicated completely
CFU/mL, Average [4, 13]: 1.45E+05 CFU/mL
CFU/mL, Run #1-#2 [4, 13]: 1.80E+05 CFU/mL and 1.10E+05 CFU/mL
CFU/mL, Average ([4]; silk, sprayed 0.06% w/w AgAOT/isopropanol, 24 h contact time): 9.13E+03 CFU/mL
CFU/mL, Average ([4]; silk, sprayed 0.24% w/w AgAOT/isopropanol, S. aureus - 0 h): 1.35E+05 CFU/mL
CFU/mL, Average [4, 14]: 0.00E+00 CFU/mL
CFU/mL, Run #1-#4 [4, 14]: 0.00E+00 CFU/mL
level giving complete killing of the E. coli (E. coli ATCC 11229; 12 h exposure): above 0.031 % weight Ag relative to overall coating weight
overall level effective as a bactericide (E. coli ATCC 11229; 12 hours of exposure): 0.06 % weight silver relative to coating weight
CFU/mL of E. coli at 24 hours (E. coli ATCC 11229; PU microscope slide coating, 0.012% weight w/w Ag in coating (first column 0.0226), triplicate): 0, 0, 0 CFU/mL
